A mixed list of measured activities; the numbers were collected in NIAID ChemDB.

Shared fields: enzyme or target tests

Blank or dashed fields: not listed here. Conditions beyond the fields shown may differ between rows. ICn: concentration for n% inhibition. Percent inhibition refers to the dose given; in toxicity tests it is the harm to the cells.

compound | endpoint | protein | organism | dose | result
CCC1CC1(NC(=O)[C@@H]1C[C@@H](OCc2cccc3ccccc23)CN1C(=O)[C@@H](NC(=O)OC(C)(C)C)C1CCCCC1)C(=O)O | IC50 | HCV NS3/NS4A protease | Hepatitis C virus | - | 15 µM
CSCC[C@H](NC(=O)[C@H](CCC(=O)O)NC(=O)[C@H](CC(=O)O)NC(C)=O)C(=O)N[C@@H](CCC(=O)O)C(=O)N[C@@H](CC1CCCCC1)C(=O)N[C@@H](CS)C(=O)O | IC50 | HCV NS3 protease | Hepatitis C virus | - | 0.35 µM
O=C(O)c1nc(-c2sccc2NC(=O)C(O)c2ccccc2Cl)[nH]c(=O)c1O | IC50 | HCV polymerase | Hepatitis C virus | - | <25 µM
O=C(O)[C@H](Cc1ccccc1)N(Cc1cccc(Br)c1)C(=O)c1ccc(Cl)cc1Br | IC50 | RNA-dependent RNA polymerase | Hepatitis C virus | - | <5 µM
C=C[C@H]1CC1(NC(=O)[C@@H]1C[C@@H](Oc2ccnc3ccccc23)CN1C(=O)CNC(=O)OC(C)(C)C)C(=O)O | IC50 | HCV NS3/NS4A protease | Hepatitis C virus | - | 6.2 µM
O=C(O)c1cccc(-c2nc(C(=O)O)c(O)c(=O)[nH]2)c1 | IC50 | HCV polymerase | Hepatitis C virus | - | <100 µM
O=C1/C(=C\c2cc(F)c(F)cc2F)SC(=S)N1NCc1ccccc1 | IC50 | NS5B polymerase | Hepatitis C virus | - | ≤30 µM
CC(C)(C)OC(=O)N[C@H](C(=O)N1C[C@H](Oc2ccnc3cc(Cl)ccc23)C[C@H]1C(=O)NC1(C(=O)O)CCC1)C(C)(C)C | IC50 | HCV NS3/NS4A protease | Hepatitis C virus | - | 7.9 µM
O=C(Nc1ccc2cn[nH]c2c1)c1cc(N2CCN(CCO)CC2)c(F)cc1F | inhibition | Nonstructural protein 5B | Hepatitis C virus | 1 µg/mL | 10%
CC(C)(C)OC(=O)N[C@H](C(=O)N1C[C@H](OCc2cccc3ccccc23)C[C@H]1C(=O)NC1(C(=O)O)CC1)C1CCCCC1 | IC50 | HCV NS3/NS4A protease | Hepatitis C virus | - | 43 µM
O=C1NC(=S)S/C1=C/c1ccc([N+](=O)[O-])cc1 | IC50 | NS5B polymerase | Hepatitis C virus | - | ≤30 µM
O=C(Nc1ccc2[nH]ncc2c1)c1cc(N2CCNCC2)c(F)cc1F | inhibition | Nonstructural protein 5B | Hepatitis C virus | 0.1 µg/mL | 20%
O=C(Nc1sccc1-c1nc(C(=O)O)c(O)c(=O)[nH]1)OCc1ccccc1 | IC50 | HCV polymerase | Hepatitis C virus | - | <25 µM
O=C(Nc1ccc2[nH]ncc2c1)c1cc(C2CCNCCN2)c(F)cc1F | inhibition | Reverse transcriptase | Hepatitis B virus | 0.01 µg/mL | 30%
COc1cccc(S(=O)(=O)NN2C(=O)/C(=C\c3cc(F)c(F)cc3F)SC2=S)c1 | IC50 | NS5B polymerase | Hepatitis C virus | - | ≤30 µM
C=C[C@H]1CC1(NC(=O)[C@@H]1C[C@@H](Oc2cc(-c3ccccc3)nc3ccccc23)CN1C(=O)[C@@H](NC(C)=O)C1CCCCC1)C(=O)O | IC50 | HCV NS3/NS4A protease | Hepatitis C virus | - | 1.9 µM
O=C1/C(=C\c2ccc(Br)cc2)SC(=S)N1NS(=O)(=O)c1ccccc1 | IC50 | NS5B polymerase | Hepatitis C virus | - | ≤30 µM
COc1cc(C)c(S(=O)(=O)N(Cc2ccc(-c3cc4ccccc4o3)cc2)[C@@H](Cc2ccccc2)C(=O)O)c(C)c1C | IC50 | RNA-dependent RNA polymerase | Hepatitis C virus | - | <5 µM
C=C[C@H]1CC1(NC(=O)[C@@H]1C[C@@H](Oc2cc(-c3ccccc3)nc3cc(OC)ccc23)CN1C(=O)[C@@H](NC(=O)N[C@@H](C)C(N)=O)C(C)(C)C)C(=O)O | IC50 | HCV NS3/NS4A protease | Hepatitis C virus | - | 0.11 µM
O=C(Nc1ccc2cn[nH]c2c1)c1cc(NCc2ccccn2)c(F)cc1F | inhibition | Nonstructural protein 5B | Hepatitis C virus | 1 µg/mL | 50%
O=C(Cc1cccs1)Nc1cccc(-c2nc(C(=O)O)c(O)c(=O)[nH]2)c1 | IC50 | HCV polymerase | Hepatitis C virus | - | <100 µM
CC1=NCCN1c1cc(C(=O)Nc2ccc3[nH]ncc3c2)c(F)cc1F | inhibition | Nonstructural protein 5B | Hepatitis C virus | 0.1 µg/mL | 0%
O=C(NCc1nccs1)Nc1cscc1-c1nc(C(=O)O)c(O)c(=O)[nH]1 | IC50 | HCV polymerase | Hepatitis C virus | - | <25 µM
COc1cc(C)c(S(=O)(=O)N(Cc2cccc(-c3cc4ccccc4o3)c2)[C@@H](Cc2ccccc2)C(=O)[O-])c(C)c1C | IC50 | RNA-dependent RNA polymerase | Hepatitis C virus | - | <5 µM
O=C1/C(=C\c2ccc(F)c(F)c2F)SC(=S)N1NS(=O)(=O)c1ccccc1 | IC50 | NS5B polymerase | Hepatitis C virus | - | ≤30 µM
CC(C)(C)OC(=O)N1CCc2ccccc2C1CC(=O)Nc1ccsc1-c1nc(C(=O)O)c(O)c(=O)[nH]1 | IC50 | HCV polymerase | Hepatitis C virus | - | <25 µM
C=C[C@H]1CC1(NC(=O)[C@@H]1C[C@@H](Oc2cc(-c3ccccc3)nc3cc(OC)ccc23)CN1C(=O)[C@@H](NC(=O)[C@@H](CC(=O)OCC(C)(C)C)C1CCCCC1)C(C)(C)C)C(=O)O | IC50 | HCV NS3/NS4A protease | Hepatitis C virus | - | 0.042 µM
O=C1/C(=C\c2ccc(Cl)c(Cl)c2)SC(=S)N1NS(=O)(=O)c1ccccc1Cl | IC50 | NS5B polymerase | Hepatitis C virus | - | ≤30 µM
CCCC(O)c1nc(C(=O)O)c(O)c(=O)[nH]1 | IC50 | HCV polymerase | Hepatitis C virus | - | <100 µM
Cc1onc(-c2ccccc2Cl)c1C(=O)c1ccc(CN(c2ccc(Cl)cc2Cl)[C@@H](Cc2ccccc2)C(=O)O)cc1 | IC50 | RNA-dependent RNA polymerase | Hepatitis C virus | - | <5 µM
CC(=O)N[C@@H](CC(=O)O)C(=O)N[C@@H](CC(=O)O)C(=O)N[C@@H](CC(C)C)C(=O)N[C@@H](CCC(=O)O)C(=O)N[C@@H](CC1CCCCC1)C(=O)N[C@@H](CS)C(=O)O | IC50 | HCV NS3 protease | Hepatitis C virus | - | 0.29 µM
O=C(Cc1cc(F)ccc1F)Nc1ccsc1-c1nc(C(=O)O)c(O)c(=O)[nH]1 | IC50 | HCV polymerase | Hepatitis C virus | - | <25 µM
CC(=O)N[C@@H](CC(=O)O)C(=O)N[C@@H](CCC(=O)O)C(=O)N[C@@H](Cc1ccc(O)cc1)C(=O)N[C@@H](CCC(=O)O)C(=O)N[C@@H](CC1CCCCC1)C(=O)N[C@@H](CS)C(=O)O | IC50 | HCV NS3 protease | Hepatitis C virus | - | 0.236 µM
C=C[C@H]1CC1(NC(=O)[C@@H]1C[C@@H](Oc2cc(-c3ccccc3)nc3ccccc23)CN1C(=O)[C@@H](NC(=O)C(F)(F)F)C(C)C)C(=O)O | IC50 | HCV NS3/NS4A protease | Hepatitis C virus | - | 0.88 µM
O=C(Nc1ccc2cn[nH]c2c1)c1cc(N2CCNCC2)c(F)cc1F | inhibition | Nonstructural protein 5B | Hepatitis C virus | 0.1 µg/mL | 20%
CCOC(=O)c1ccc(N[C@H](C(=O)N2C[C@H](OCc3cccc4ccccc34)C[C@H]2C(=O)NC2(C(=O)O)CC2)C2CCCCC2)cc1 | IC50 | HCV NS3/NS4A protease | Hepatitis C virus | - | 42 µM
CC[C@@H](C)[C@@H](NC(=O)[C@H](CC(=O)O)NC(C)=O)C(=O)N[C@@H](CC(C)C)C(=O)N[C@@H](CCC(=O)O)C(=O)N[C@@H](CC1CCCCC1)C(=O)N[C@@H](CS)C(=O)O | IC50 | HCV NS3 protease | Hepatitis C virus | - | 0.33 µM
Cc1ccc(C(=O)N(Cc2cccc(Br)c2)[C@@H](Cc2ccccc2)C(=O)O)c(C)c1 | IC50 | RNA-dependent RNA polymerase | Hepatitis C virus | - | <5 µM
CC[C@H](C)[C@H](NC(=O)[C@H](CC(C)C)NC(=O)[C@@H](CCC(=O)O)NC(=O)[C@H](CC(=O)O)NC(C)=O)C(=O)N[C@@H](CC1CCCCC1)C(=O)N[C@@H](CS)C(=O)O | IC50 | HCV NS3 protease | Hepatitis C virus | - | 0.015 µM
COc1cc(/C=C2/SC(=S)NC2=O)ccc1O | IC50 | NS5B polymerase | Hepatitis C virus | - | ≤30 µM

The last 4 rows once more:

compound,endpoint,protein,organism,dose,result
CC[C@@H](C)[C@@H](NC(=O)[C@H](CC(=O)O)NC(C)=O)C(=O)N[C@@H](CC(C)C)C(=O)N[C@@H](CCC(=O)O)C(=O)N[C@@H](CC1CCCCC1)C(=O)N[C@@H](CS)C(=O)O,IC50,HCV NS3 protease,Hepatitis C virus,-,0.33 µM
Cc1ccc(C(=O)N(Cc2cccc(Br)c2)[C@@H](Cc2ccccc2)C(=O)O)c(C)c1,IC50,RNA-dependent RNA polymerase,Hepatitis C virus,-,<5 µM
CC[C@H](C)[C@H](NC(=O)[C@H](CC(C)C)NC(=O)[C@@H](CCC(=O)O)NC(=O)[C@H](CC(=O)O)NC(C)=O)C(=O)N[C@@H](CC1CCCCC1)C(=O)N[C@@H](CS)C(=O)O,IC50,HCV NS3 protease,Hepatitis C virus,-,0.015 µM
COc1cc(/C=C2/SC(=S)NC2=O)ccc1O,IC50,NS5B polymerase,Hepatitis C virus,-,≤30 µM